The results in this text go back to article PMC11666439 (Frontiers in Immunology, 2024).

The target in the assay is SARS-CoV-2 N-terminal region ([…]) (SARS-CoV-2). Briefly: ELISA. Particulars: both partners purified. (An ELISA detects its analyte on a solid surface through an enzyme-linked reagent.)

B1: recombinant mannose-binding lectin (rMBL) (natural protein)
chain: ETVTCEDAQKTCPAVIACSSPGINGFPGKDGRDGTKGEKGEPGQGLRGLQGPPGKLGPPGNPGPSGSPGPKGQKGDPGKSPDGDSSLAASERKALQTEMARIKKWLTFSLGKQVGNKFFLTNGEIMTFEKVKALCVKFQASVATPRNAAENGAIQNLIKEEAFLGITDEKTEGQFVDLTGNRLTYTNWNEGEPNNAGSDEDCVLLLKNGQWNDVPCSTSHLAVCEFPI
As for B1, the binding result is “binds”.
